According to ChEMBL document CHEMBL1782021, “Synthesis of 2-aziridinyl phosphonates by modified Gabriel-Cromwell reaction and their antibacterial activities” (2011):

Key:
Gordonia sp. = test: Antibacterial activity against Gordonia sp. isolate Fs48 after 24 hrs by disc diffusion assay
Bacillus subtilis = test: Antibacterial activity against Bacillus subtilis after 24 hrs by disc diffusion assay
Brevundimonas = test: Antibacterial activity against Brevundimonas sp. isolate Fs30 after 24 hrs by disc diffusion assay
Escherichia coli = test: Antibacterial activity against Escherichia coli DH5[alpha] after 24 hrs by disc diffusion assay
Kocuria = test: Antibacterial activity against Kocuria sp. isolate Fs24 after 24 hrs by disc diffusion assay

SMILES	inhibition zone (IZ) (Gordonia sp.)	inhibition zone (IZ) (Bacillus subtilis)	inhibition zone (IZ) (Brevundimonas)	inhibition zone (IZ) (Escherichia coli)	inhibition zone (IZ) (Kocuria)
CCOP(=O)(OCC)C1CN1C1CCCCC1 (stereo not given)	23.3 mm	9.66 mm	14.3 mm	10 mm	18.3 mm
CCOP(=O)(OCC)C1CN1Cc1ccccc1 (stereo not given)	13 mm	10 mm	13.7 mm	8 mm	18 mm
CCOP(=O)(OCC)C1CN1C(C)C (stereo not given)	15.7 mm	19.3 mm	16 mm	9 mm	19 mm
CCOP(=O)(OCC)C1CN1 (stereo not given)	11.7 mm	11.3 mm	12.3 mm	11.3 mm	12.3 mm
CCOP(=O)(OCC)C1CN1[C@H](CC)c1ccccc1 (stereo not given in full)	13.3 mm and 16.3 mm	10 mm and 11.7 mm	13.7 mm and 13.3 mm	13 mm and 12 mm	12 mm and 19 mm
CCOP(=O)(OCC)C1CN1Cc1ccco1 (stereo not given)	14.7 mm	10.3 mm	15 mm	13.3 mm	14.7 mm
CCOP(=O)(OCC)C1CN1[C@H](CC)CO (stereo not given in full)	11 mm and 15.3 mm	11 mm and 17 mm	20 mm and 13 mm	10.7 mm and 20 mm	25 mm and 18.7 mm

Several values for one entry are separate records, joined by “and”; a condition that tells them apart may be missing. Equal entries are not always repeated.
